According to PMC11599015 (Viruses, 2024):

How the values were obtained:
[1] = target: T1, recombinant circular RABV N10-RNA complex purified from insect cells (phosphorylated) (rabies virus (RABV), UniProt Q8JXF6 1-450, phosphoserine at 389 (about 7 out of 10 N molecules on average))
T1 sequence: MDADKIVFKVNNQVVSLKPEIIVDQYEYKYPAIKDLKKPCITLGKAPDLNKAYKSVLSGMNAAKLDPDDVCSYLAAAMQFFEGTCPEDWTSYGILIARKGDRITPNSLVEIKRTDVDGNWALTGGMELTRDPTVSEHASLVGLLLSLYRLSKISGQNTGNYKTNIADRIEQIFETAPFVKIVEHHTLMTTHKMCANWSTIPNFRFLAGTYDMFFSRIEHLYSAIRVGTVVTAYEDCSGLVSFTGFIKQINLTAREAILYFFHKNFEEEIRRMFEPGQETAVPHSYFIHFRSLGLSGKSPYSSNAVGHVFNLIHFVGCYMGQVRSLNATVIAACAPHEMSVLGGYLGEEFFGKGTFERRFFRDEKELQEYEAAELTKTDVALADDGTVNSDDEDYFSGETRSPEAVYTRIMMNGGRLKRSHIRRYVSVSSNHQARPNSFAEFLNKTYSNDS

[2] = target: dephosphorylated linear RABV nucleocapsids (treated with CIAP) (rabies virus (RABV), UniProt Q8JXF6 1-450, dephosphorylated with CIAP (5% of N molecules taken to remain phosphorylated)); assay: SPR

B1: full-length rabies virus (RABV) phosphoprotein P dimer (natural protein)
chain: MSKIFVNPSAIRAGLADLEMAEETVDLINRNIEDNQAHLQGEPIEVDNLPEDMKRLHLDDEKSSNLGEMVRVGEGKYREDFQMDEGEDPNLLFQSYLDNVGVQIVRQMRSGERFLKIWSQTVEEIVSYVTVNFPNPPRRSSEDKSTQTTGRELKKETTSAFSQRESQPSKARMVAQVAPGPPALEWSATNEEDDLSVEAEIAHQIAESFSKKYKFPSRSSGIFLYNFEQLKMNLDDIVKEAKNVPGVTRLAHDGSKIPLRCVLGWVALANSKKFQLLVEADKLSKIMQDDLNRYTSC
- Ka (bimolecular step of the first CTD) [1]: 80 nM
- Kd [1]: 5.5 nM
- stoichiometry N [1]: 3.5 monomers of P bound per N10-RNA ring
- Kd [2]: 1600 nM
